Laboratory results from publication PMC10675732 (Viruses, 2023).
Entries after “also recorded” stand apart in the source; their conditions may differ. Like-named read-outs stand apart in the source and are kept apart here.

System: A/PR/8/34 (H1N1)
Assay type: in vivo, influenza A virus

O=C1c2c(O)c(=O)ccn2N([C@@H]2c3ccccc3SCc3c2ccc(F)c3F)[C@@H]2COCCN12 [baloxavir acid]
HI Titer ± SD, Calculated (1.6 mg/kg, 96 h before infection, 28 days post-infection): 368 ± 152
HI Titer ± SD, Calculated (3.2 mg/kg, 72 h before infection, 30 days post-infection): 320 ± 277
Antibody response (10 mg/kg, 24 h before infection): few antibody responses were observed; also recorded: no increase in antibody titre was observed
HI Titer ± SD, Calculated (10 mg/kg, 24 h before infection, 21 days post-infection): 20
